Record: PubChem BioAssay AID1259414 (Drosophila RNAi Screening Center, 2018)

Purpose: 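Fly genes that alter Wolbachia amount inside host cells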 (primary screen)
Cells: Drosophila JW18 cells infected with Wolbachia
Knock-down reagent: long dsRNA against Drosophila genes, 0.25 µg dsRNA per well of a 384-well plate
Duration: 5 days
Challenge: cells persistently infected with Wolbachia before knock-down; no added drug
Measurement: 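Automated imaging of bacterial rRNA staining divided by host cell count, reported as plate-normalised robust z-score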
Reading the numbers: Wolbachia per cell robust z: higher = more Wolbachia per host cell than the plate typical
Rule for the call: 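Active if absolute robust z reaches 1.5 in two or more of three replicates, leaving out multi- or no-target dsRNAs, genes unexpressed in JW18 and A1 wells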
The screen tested about 24,000 reagents; this is an unselected part of those that have a named target and a result. Over the whole deposit, about 1,210 (5%) are marked active. 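Inactive calls also include excluded dsRNAs with several or no targets, genes unexpressed in JW18, and well A1, regardless of score.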

| predicted target | DRSC id | Wolbachia per cell robust z, rep 1 | Wolbachia per cell robust z, rep 2 | Wolbachia per cell robust z, rep 3 | call |
| --- | --- | --- | --- | --- | --- |
| glob3 (globin 3) | DRSC12261 | -0.954 | 0.302 | -9.05 | inactive |
| ari-2 (ariadne 2) | DRSC04672 | 0.31 | -0.525 | 0.337 | inactive |
| ari-2 (ariadne 2) | DRSC27896 | -5.08 | -0.277 | 1.67 | inactive |
| Pkcdelta (Protein kinase C delta) | DRSC19356 | 0.678 | 0.65 | 0.318 | inactive |
| Pkcdelta (Protein kinase C delta) | DRSC19399 | -0.453 | 0.309 | -0.0513 | inactive |
| Pkcdelta (Protein kinase C delta) | DRSC27039 | -0.58 | 0.941 | 1.71 | inactive |
| CG32086 | DRSC10586 | 0.673 | -1.11 | 1.04 | inactive |
| CG11249 | DRSC11645 | -0.177 | -0.345 | -0.138 | inactive |
| BEAF-32 (Boundary element-associated factor of 32kD) | DRSC05927 | -1.13 | -0.165 | 0.177 | inactive |
| Fer3HCH (Ferritin 3 heavy chain homologue) | DRSC19892 | 0.42 | -2.77 | -2.15 | inactive |
| Fer3HCH (Ferritin 3 heavy chain homologue) | DRSC26911 | -0.15 | -0.493 | -0.339 | inactive |
| CG13000 | DRSC19519 | 0.548 | -0.215 | -0.81 | inactive |
| CG13000 | DRSC25279 | -0.648 | -0.329 | -0.75 | inactive |
| lsn (larsen) | DRSC16081 | -0.486 | 1.16 | 0.498 | inactive |
| lsn (larsen) | DRSC25700 | 0.853 | 1.21 | -0.351 | inactive |
| Dgkepsilon (Diacyl glycerol kinase epsilon) | DRSC07399 | 0.669 | 0.000148 | 0.361 | inactive |
| CG12493 | DRSC08279 | -0.442 | -0.933 | -3.55 | inactive |
| CG12493 | DRSC25535 | -1.13 | 0.0398 | 0.0703 | inactive |
| Efhc1.2 (EF-hand domain containing 1.2) | DRSC06027 | -2.96 | 1 | 0.599 | inactive |
| CG3165 | DRSC00573 | 0.823 | -1.68 | 0.322 | inactive |
| DMAP1 (DNA methyltransferase 1 associated protein 1) | DRSC06044 | 0.716 | 1.47 | 2.14 | inactive |
| DMAP1 (DNA methyltransferase 1 associated protein 1) | DRSC26559 | 0.663 | 0.0767 | 0.784 | inactive |
| mRpS7 (mitochondrial ribosomal protein S7) | DRSC02814 | -0.678 | -0.497 | -0.0278 | inactive |
| Xe7 | DRSC12307 | -6.05 | -0.618 | -0.434 | inactive |
| ect (ectodermal) | DRSC10675 | -0.773 | -0.985 | -2.34 | inactive |
| ect (ectodermal) | DRSC11343 | 0.327 | -2.93 | 0.269 | inactive |
| ect (ectodermal) | DRSC22357 | -0.143 | 0.755 | -0.685 | inactive |
| ect (ectodermal) | DRSC27880 | -1.59 | -0.676 | -1.03 | inactive |
